The source of these data is ChEMBL document CHEMBL5120941 (ACS Med Chem Lett, 2022).

Each structure is given as a SMILES string.

Experiment [1] deals with Staphylococcus aureus. As to the kind of experiment: Antibacterial activity against Staphylococcus aureus ATCC 19636 infected Sprague-Dawley rat peritonitis model assessed as increase in animal's survival rate administered orally at 1 hr post-infection and measured after 48 hrs. The conditions noted are these: route po.
The subject of experiment [2] is Staphylococcus aureus. Description: Antibacterial activity against Staphylococcus aureus ATCC 29213 infected ICR mouse thigh infection model assessed as log reduction in bacterial colony forming units administered at 40 mg/kg, po at 2 hrs post-infection and measured at 24 hrs post-infection. The note with it: time 22 hrs.
The subject of experiment [3] is Staphylococcus aureus. As to the kind of experiment: Antibacterial activity against Staphylococcus aureus ATCC 19636 infected Sprague-Dawley rat peritonitis model assessed as increase in animal's survival rate administered iv at 1 hr post-infection and measured after 48 hrs.
In experiment [4] the test system is Staphylococcus aureus. As to the kind of experiment: Antibacterial activity against Staphylococcus aureus ATCC 19636 infected ICR mouse septicemia model assessed as increase in animal's survival rate administered iv at 1 hr post-infection and measured after 48 hrs.

For orientation: ED50 means the dose that gives a 50% effect, or the effect in half of the subjects. As to `CC(=O)OP(=O)([O-])N(C[C@H]1CN(c2cc(F)c(N3C=CC(=O)CC3)c(F)c2F)C(=O)O1)c1ccon1.[Na+]`, the 50% effective dose (ED50) in experiment [1] and in experiment [3] was 10.3 mg/kg in each case. In experiment [2], the Activity is above 2 log10CFU.

With `O=C1C=CN(c2c(F)cc(N3C[C@H](CN(c4ccon4)P(=O)([O-])[O-])OC3=O)c(F)c2F)CC1.[Na+].[Na+]`, the ED50 in experiment [4] turned out to be 10 mg/kg.

As to `COP(=O)(O)N(C[C@H]1CN(c2cc(F)c(N3C=CC(=O)CC3)c(F)c2F)C(=O)O1)c1ccon1`, the ED50 in experiment [4] was above 20 mg/kg.

With `CCOP(=O)(O)N(C[C@H]1CN(c2cc(F)c(N3C=CC(=O)CC3)c(F)c2F)C(=O)O1)c1ccon1`, in experiment [4], the ED50 is above 30 mg/kg.
